Measured values from several laboratories, pooled; numbers as filed in NIAID ChemDB.

Shared fields: whole-cell or culture tests; organism: Candida albicans

ECn is the concentration giving n% inhibition of infection, replication or growth. Inhibition is in % at the dose shown (toxicity tests: loss of growth or viability). A number after MIC or MFC names an inhibition level or a share of isolates. Rows are shuffled and stem from different studies. An empty or dashed field is not shown.

structure	dose	strain	endpoint	conditions	read by	result
CC(=O)OC[C@H]1O[C@@H](O[C@@H]2[C@@H](N=[N+]=[N-])[C@H](O)[C@H](O)[C@H]3OC(C)(C)O[C@H]32)[C@H](OC(C)=O)[C@@H](OC(C)=O)[C@H]1OC(C)=O	250 µg/mL	ATCC 10231	inhibition	-	broth dilution / turbidity	77.96%
C=CCSS(=O)CC=C	-	Clinical Isolate 2605	MIC90	-	broth dilution	6.25 µg/mL
Clc1ccccc1COc1ccc(C(c2nccc3ccccc23)n2ccnc2)cc1.O=[N+]([O-])O	-	16 strains	Mean MIC	-	-	≥256 µg/mL
Cc1ccc(-c2c3c(N)c4c(nc3nc3c2c(C)nn3-c2ccccc2)CCCCC4)cc1	-	CCC 125	MIC80	-	broth dilution / absorbance	62.5 µg/mL
NCCCC[C@H](NC(=O)[C@H](CCCN=C(N)N)NC(=O)[C@H](CCCN=C(N)N)NC(=O)[C@H](CCCCN)NC(=O)[C@H](CCCCN)NC(=O)[C@@H](N)CCCCN)C(=O)N[C@@H](CCCN=C(N)N)C(=O)O	100 µM	ATCC 10231	inhibition	-	-	12%
CC(O)Cn1cc(CN2CCN([C@H](C)[C@](O)(Cn3cncn3)c3ccc(F)cc3F)CC2)c2cccc(Cl)c21	-	ATCC 90028	MIC80	-	resazurin	1 µg/mL
C[C@H]1[C@H](O)[C@@H](C)/C=C/C=C/C=C/C=C/C=C/C=C/C=C/[C@H](O[C@@H]2O[C@H](C)[C@@H](O)[C@H](N)[C@@H]2O)C[C@@H]2O[C@](O)(C[C@@H](O)C[C@@H](O)CC[C@H](O)[C@@H](O)C[C@@H](O)CC(=O)O[C@H]1C)C[C@H](O)[C@H]2C(=O)O	-	12 isolates	MFC90	-	-	1 µg/mL
Oc1ccc2c(c1)CCc1ccc(O)c(c1)Oc1ccc(cc1)CCc1cccc(O)c1O2	-	BWP17-DPP3-GFP	MIC80	-	broth dilution	16 µg/mL
C[C@@H](N1CCN(Cc2cn(Cc3ccc(F)cc3F)c3cc(N=[N+]=[N-])ccc23)CC1)[C@](O)(Cn1cncn1)c1ccc(F)cc1F	-	ATCC 90028	MIC80	-	resazurin	0.125 µg/mL
COc1ccc(C(Cc2ccc(F)cc2)n2ccnc2)cc1	-	34 strains	Geometric mean MIC	-	-	61.39 µg/mL
Clc1cccc(Cl)c1COc1ccc(C(c2cccc3ccccc23)n2ccnc2)cc1.O=[N+]([O-])O	-	16 strains	Mean MIC	-	-	≥256 µg/mL
COc1ccc(C(Cc2ccccc2-n2cccc2)n2ccnc2)cc1	-	34 strains	Geometric mean MIC	-	-	19.85 µg/mL
Clc1ccc(COc2ccc(C(c3nccc4ccccc34)n3ccnc3)cc2)cc1.O=[N+]([O-])O	-	16 strains	Mean MIC	-	-	≥256 µg/mL
C[C@@H](c1ncncc1F)[C@](O)(Cn1cncn1)c1ccc(F)cc1F	-	15 isolates	EC90	pH 7	broth dilution	0.03 µg/mL
COc1ccc(C(Cc2cccc(Cl)c2)n2ccnc2)cc1	-	34 strains	Geometric mean MIC	-	-	108 µg/mL
C[C@H]1[C@H](O)[C@@H](C)/C=C/C=C/C=C/C=C/C=C/C=C/C=C/[C@H](O[C@@H]2O[C@H](C)[C@@H](O)[C@H](N)[C@@H]2O)C[C@@H]2O[C@](O)(C[C@@H](O)C[C@@H](O)CC[C@H](O)[C@@H](O)C[C@@H](O)CC(=O)O[C@H]1C)C[C@H](O)[C@H]2C(=O)O	-	CCC 129	MIC100	-	broth dilution / absorbance	0.78 µg/mL
COC(=O)[C@H]1[C@@H]2C[C@@H](O[C@@H]3O[C@H](C)[C@@H](O)[C@H](N)[C@@H]3O)/C=C/C=C/C=C/C=C/C=C/C=C/C=C/[C@H](C)[C@@H](O)[C@H](C)[C@H](C)OC(=O)C[C@H](O)C[C@H](O)[C@@H](O)CC[C@H](O)C[C@H](O)C[C@](O)(C[C@@H]1O)O2	-	10 isolates	EC90	pH 4	broth dilution	16 µg/mL
Cc1ccc(-c2c3c(N)c4c(nc3nc3c2c(C)nn3-c2ccccc2)CCC4)cc1	-	CCC 125	MIC80	-	broth dilution / absorbance	62.5 µg/mL
Clc1cccc(C(c2nccc3ccccc23)n2ccnc2)c1.O=[N+]([O-])O	-	44 strains	Mean MIC	-	-	143.2 µg/mL
COc1ccc([C@@H](Cc2ccc(Cl)cc2Cl)n2ccnc2)cc1	-	34 strains	Geometric mean MIC	-	-	5.66 µg/mL
NC(=NC1CCCC1)c1ccc(-c2ccc(-c3ccc(C(N)=NC4CCCC4)cc3)o2)cc1	-	Isolate CA2601 fluconazole-resistant	MFC	-	-	50 µg/mL
CCC(C)CC(C)CCCCCCCCC(=O)N[C@H]1C[C@@H](O)[C@H](NCCN)NC(=O)[C@@H]2[C@@H](O)CCN2C(=O)[C@H]([C@H](O)CCN)NC(=O)[C@H]([C@H](O)[C@@H](O)c2ccc(O)cc2)NC(=O)[C@@H]2C[C@@H](O)CN2C(=O)[C@H]([C@@H](C)O)NC1=O	-	15 isolates	EC90	pH 6	broth dilution	0.125 µg/mL
OC(CN1CCN(c2ccc(OCc3ccncc3)cc2)CC1)(Cn1cncn1)c1ccc(F)cc1F	-	ATCC76615F55	MIC80	-	-	0.25 µg/mL
C[C@@H](N1CCN(Cc2cn(Cc3ccc(C(F)(F)F)cc3)c3cc(Cl)ccc23)CC1)[C@](O)(Cn1cncn1)c1ccc(F)cc1F	-	ATCC 90028	MIC80	-	resazurin	0.125 µg/mL
Clc1ccc(COc2ccc(C(c3ccc(-c4ccccc4)cc3)n3ccnc3)cc2)c(Cl)c1.O=[N+]([O-])O	-	17 strains	Mean MIC	-	-	≥256 µg/mL
COc1ccc(-c2c3c(N)c4c(nc3nc3c2c(C)nn3-c2ccccc2)CCCC4)cc1	-	ATCC 10231	MIC80	-	broth dilution / absorbance	125 µg/mL
C=CCc1ccc(O)c(OC)c1	-	2938	MIC90	-	turbidity	500 µg/mL
Cc1ccc(-c2c3c(N)c4c(nc3nc3c2c(C)nn3-c2ccccc2)CCCC4)cc1	-	CCC 130	MIC80	-	broth dilution / absorbance	31.2 µg/mL
Clc1ccc(COc2ccc(C(c3nccc4ccccc34)n3ccnc3)cc2)c(Cl)c1	-	17 strains	Mean MIC	-	-	≥256 µg/mL
CC[C@@H]([C@H](C)O)n1ncn(-c2ccc(N3CCN(c4ccc(OC[C@@H]5CO[C@@](Cn6cncn6)(c6ccc(F)cc6F)C5)cc4)CC3)cc2)c1=O	-	10 isolates	EC90	pH 7	broth dilution	0.03 µg/mL
CCC(C)c1ccc(Cn2cc(CN3CCN([C@H](C)[C@](O)(Cn4cncn4)c4ccc(F)cc4F)CC3)c3ccccc32)cc1	-	ATCC 90028	MIC80	-	resazurin	4 µg/mL

2 of the rows above, restated:

structure	dose	strain	endpoint	conditions	read by	result
COC(=O)[C@H]1[C@@H]2C[C@@H](O[C@@H]3O[C@H](C)[C@@H](O)[C@H](N)[C@@H]3O)/C=C/C=C/C=C/C=C/C=C/C=C/C=C/[C@H](C)[C@@H](O)[C@H](C)[C@H](C)OC(=O)C[C@H](O)C[C@H](O)[C@@H](O)CC[C@H](O)C[C@H](O)C[C@](O)(C[C@@H]1O)O2	-	10 isolates	EC90	pH 4	broth dilution	16 µg/mL
Clc1ccc(COc2ccc(C(c3ccc(-c4ccccc4)cc3)n3ccnc3)cc2)c(Cl)c1.O=[N+]([O-])O	-	17 strains	Mean MIC	-	-	≥256 µg/mL